Measured values from several laboratories, pooled; numbers as filed in NIAID ChemDB.

Shared fields: tests in culture; agent: Mycobacterium tuberculosis

Blank or dashed fields: not listed here.

SMILES,strain or isolate,changes,method,conditions,read-out,tested at,result
Cc1cc2c(ncn2[C@@H]2O[C@H](CO)[C@@H](O)[C@H]2O)c(C)n1,SRICK1::ADOK,,,,MIC,,10–100 µg/mL
COc1ccc(/C=N/C(=O)NCCCN2c3ccccc3Sc3ccccc32)cc1,H37Rv,,agar,,inhibition,25 µg/mL,25%
CC(=O)ONc1nn2cc(-c3ccccc3)nc2s1,H37Rv,,BACTEC,,MIC bound,,>12.5 µg/mL
CCCCCc1ccc(Oc2cccnc2F)c(O)c1,,,,,MIC100,,0.3125 µg/mL
O=C(/N=C/c1ccc(Cl)cc1)NCCCN1c2ccccc2Sc2ccccc21,H37Rv,,agar,,inhibition,25 µg/mL,25%
CCCCCc1ccc(Oc2c(C)cccc2N)c(O)c1,,,,,MIC100,,>100 µg/mL
CCN(CC)CCNC(=O)Nc1c(C#N)[n+]([O-])c2ccccc2[n+]1[O-],H37Rv,,,,MIC,,>12.5 µg/mL
COc1cccc2c(=O)c(COC(C)=O)c(C)[nH]c12,H37Rv,,BACTEC,,MIC bound,,>12.5 µg/mL
CO[C@H]1/C=C/O[C@@]2(C)Oc3c(c4c(O)c(/C=N/N5CCN(C)CC5)c(c5nn(C)c(c3C)c45)=NC(=O)/C(C)=C\C=C\[C@H](C)[C@H](O)[C@@H](C)[C@@H](O)[C@@H](C)[C@H](OC(C)=O)[C@@H]1C)C2=O,,,low oxygen,,MIC90,,>19.3 µM
O=C(NCCO)C(=O)N/N=C/c1ccc([N+](=O)[O-])o1,H37Rv,,BACTEC,,MIC bound,,≤12.5 µg/mL
CC(C)OC(=O)Nc1c(C#N)[n+]([O-])c2cc(Cl)c(Cl)cc2[n+]1[O-],H37Rv,,,,inhibition,6.25 µg/mL,99%
O=C(/N=C/c1ccc([N+](=O)[O-])cc1)NCCCN1c2ccccc2Sc2ccccc21,H37Rv,,agar,,inhibition,50 µg/mL,55%
COc1cc2c(c3c[n+](C)c4c5cc6c(cc5ccc4c13)OCO6)OCO2,H37Rv,,BACTEC,,inhibition,12.5 µg/mL,96%
O=C(NCCCN1c2ccccc2Sc2ccccc21)N1C(=O)/C(=C\c2ccccc2[N+](=O)[O-])SC1c1ccccc1[N+](=O)[O-],H37Rv,,agar,,inhibition,25 µg/mL,28%
O=C1c2c(O)ccc(O)c2C(=O)c2c(NCCNCCO)ccc(NCCNCCO)c21,H37Rv,,BACTEC,,inhibition,12.5 µg/mL,16%
CCCCc1ncc(C(N)=S)nc1SCC,H37Rv,,,,MIC,,>12.5 µg/mL
CO[C@H]1/C=C/O[C@@]2(C)Oc3c(C)c(O)c4c(O)c(c(/C=N/N5CCN(C)CC5)c(O)c4c3C2=O)NC(=O)/C(C)=C\C=C\[C@H](C)[C@H](O)[C@@H](C)[C@@H](O)[C@@H](C)[C@H](OC(C)=O)[C@@H]1C,H37Rv,,agar / absorbance,,MIC,,0.5 µg/mL
CC(=O)O[C@H]1CC[C@@]2(C)C(CC[C@]3(C)C2CCC2[C@@]4(C)CC[C@H](C(C)(C)O)C4C[C@H](OC(C)=O)[C@]23C)C1(C)C,,,,,MIC,,>50 µg/mL
CN(C)CCCNC(=O)Nc1c(C#N)[n+]([O-])c2ccccc2[n+]1[O-],H37Rv,,,,MIC,,>12.5 µg/mL
Nc1nc(F)cc2c1ncn2[C@@H]1O[C@H](CO)[C@@H](O)[C@H]1O,H37Ra,,,,MIC,,1–10 µg/mL
CCN(CC)CCCN=c1cc2n(-c3ccc(Cl)c(Cl)c3)c3ccccc3nc-2cc1Nc1ccc(Cl)c(Cl)c1,2230,,,multidrug-resistant,MIC,,0.12 µg/mL
O=C(/N=C/c1ccc(O)cc1)NCCCN1c2ccccc2Sc2ccccc21,H37Rv,,agar,,inhibition,25 µg/mL,28%
CNC(=O)c1ccc[n+](CC(=O)NCc2ccccc2)c1.[Cl-],H37Rv,,BACTEC,,MIC bound,,>12.5 µg/mL
CSc1nc(C(N)=S)cnc1CC(C)C,H37Rv,,,,inhibition,12.5 µg/mL,<90%
CC(C)(O)[C@H]1CC[C@@]2(C)C1C[C@H](O)[C@]1(C)C2CCC2[C@@]3(C)CC[C@H](O)C(C)(C)C3CC[C@]21C,,,,,MIC,,>50 µg/mL
O=C(/N=C/c1ccc(Br)cc1)NCCCN1c2ccccc2Sc2ccccc21,H37Rv,,agar,,inhibition,50 µg/mL,40%
Nc1nc(F)c(F)c2c1NCN2[C@@H]1O[C@H](CO)[C@@H](O)[C@H]1O,H37Ra,,,,MIC,,>100 µg/mL
O=c1ccc2ncccc2n1CCN1CCC(NCc2cc(Cl)c(Cl)cn2)CC1,Beijing 1237,,resazurin,,MIC,,0.15 µg/mL
COc1ccc2c(c1)[n+]([O-])c(C#N)c(NC(=O)OC(C)C)[n+]2[O-],H37Rv,,,,inhibition,6.25 µg/mL,99%
COc1ccc(-c2cc(NC(=O)c3cnccn3)c(=O)oc2C)cc1,H37Rv,,BACTEC,,MIC bound,,>6.25 µg/mL
NNC(=O)c1ccncc1,88.7,pyrG V186G,resazurin,,MIC,,0.025 µg/mL
COC(=O)[C@]1(C)CCC[C@]2(C)C3=C[C@@H](O)[C@@]4(C(C)C)O[C@H]4[C@]3(O)CC[C@@H]12,H37Rv,,BACTEC,,inhibition,12.5 µg/mL,24%
CC1(C)S[C@@H]2[C@H](NC(=O)[C@H](N)c3ccccc3)C(=O)N2[C@H]1C(=O)O,IGR,,,,MIC,,>92 µM
O=C(NCCCN1c2ccccc2Sc2ccccc21)N1C(=O)/C(=C\c2ccccc2Br)SC1c1ccccc1Br,H37Rv,,agar,,inhibition,50 µg/mL,76%
CC(C)=CCc1c2c(c3occ(-c4ccc(OS(=O)(=O)c5ccc(C)cc5)c(OS(=O)(=O)c5ccc(C)cc5)c4)c(=O)c3c1O)C=CC(C)(C)O2,H37Rv,,BACTEC,,inhibition,12.5 µg/mL,6%
C=CCNc1c(C)c2c3c4c1C(=O)C(=C(/C=N/N1CCN(C)CC1)C4=O)NC(=O)/C(C)=C\C=C\[C@H](C)[C@H](O)[C@@H](C)[C@@H](O)[C@@H](C)[C@H](OC(C)=O)[C@H](C)[C@@H](OC)/C=C/O[C@@](C)(O2)C3=O,,,low oxygen,,MIC90,,>18.6 µM
CCOC(=O)/C=C/c1ccc(OC)cc1,BTB09-126,,resazurin,,MIC,,485 µM
CCCCCCCCCCCCNC1=C(Cl)C(=O)C(=O)c2cccnc21,H37Rv,,BACTEC,,MIC,,0.78 µg/mL
CC1CN(c2c(F)cc3c(=O)c(C(=O)O)cn(C4CC4)c3c2O)CCN1.O=S1CCCC1.[Cl][Rh]([Cl])[Cl],ATCC 27294,,agar diffusion,,zone,0.2 µg/mL,17 mm
CC(=O)Nc1ccc(/C=C2\SC(=S)N(/N=C/c3ccc(NC(C)=O)cc3)C2=O)cc1,H37Rv,,resazurin,,inhibition,6.25 µg/mL,5%
O[C@H](c1cc(C(F)(F)F)nc2c(C(F)(F)F)cccc12)[C@@H]1CCCCN1,H37Rv,,resazurin,,MIC,,20 µg/mL
O=C(CCn1ccnc1[N+](=O)[O-])Nc1ccc(N(CCCl)CCCl)cc1,H37Rv,,resazurin,,inhibition,6.25 µg/mL,-2%
COc1cc2c(c3c1c[n+](C)c1c4cc5c(cc4ccc31)OCO5)OCO2,H37Rv,,BACTEC,,inhibition,12.5 µg/mL,93%
NNC(=O)c1ccncc1,19 strains,,,,MIC90,,0.1 µg/mL
CCCCCc1ccc(Oc2ccccc2O)c(O)c1,,,,,MIC100,,12.5 µg/mL
CCC(=O)N1C(=O)C(C)C23c4ccccc4C(=O)N2CCCN13,H37Rv,,BACTEC,,MIC bound,,>12.8 µg/mL
CCCCc1ncc(C(N)=O)nc1Sc1ccccc1,H37Rv,,,,inhibition,12.5 µg/mL,61%
CN[C@@H]1[C@@H](O)[C@@H](O[C@@H]2[C@@H](O)[C@H](O[C@H]3O[C@H](CN)CC[C@H]3N)[C@@H](N)C[C@H]2N)OC[C@]1(C)O,7357/1998,,,,MIC,,1.05 µM
CCCCSc1nc(C(N)=O)cnc1CCC,H37Rv,,,,MIC,,>12.5 µg/mL
CCCCCCCCCCCCc1ccc(NC(=O)C2=CCN(C)[C@@H]([C@H](O[C@@H]3O[C@H](CN)[C@@H](O)[C@H]3O)[C@H]3O[C@@H](n4ccc(=O)[nH]c4=O)[C@H](O)[C@@H]3O)C(=O)N2C)cc1,Kurono,,,,MIC,,3.13 µg/mL
CO[C@H]1/C=C/O[C@@]2(C)Oc3c(C)c(O)c4c(O)c(c(/C=N/N5CCN(C)CC5)c(O)c4c3C2=O)NC(=O)/C(C)=C\C=C\[C@H](C)[C@H](O)[C@@H](C)[C@@H](O)[C@@H](C)[C@H](OC(C)=O)[C@@H]1C,7357/1998,,,,MIC,,>9.7 µM
CCCCc1ncc(C(N)=O)nc1SC,H37Rv,,,,MIC,,>12.5 µg/mL
CN(C)c1ccc(/C=N/Nc2ccccn2)c(Cl)c1,H37Rv,,BACTEC,,MIC bound,,>12.5 µg/mL
CCCc1ncc(C(N)=O)nc1SC,H37Rv,,,,inhibition,12.5 µg/mL,<90%
Cc1ccc2nc(Cl)c(C#N)nc2c1,H37Rv,,,,inhibition,6.25 µg/mL,39%
CC1COc2c(N3CCN(C)CC3)c(F)cc3c(=O)c(C(=O)O)cn1c23,Beijing 1237,,resazurin,,MIC,,0.3 µg/mL
CN[C@@H]1[C@H](O[C@H]2[C@H](O[C@H]3[C@H](O)[C@@H](O)[C@H](N=C(N)N)[C@@H](O)[C@@H]3N=C(N)N)O[C@@H](C)[C@]2(O)C=O)O[C@@H](CO)[C@H](O)[C@H]1O,Praha 1,,,,MIC,,13.7 µM
CCOC(=O)c1oc2ccccc2c1CN(CCO)CCO,H37Rv,,BACTEC,,inhibition,12.5 µg/mL,2%
COc1cc2c[n+](C)c3c4cc5c(cc4ccc3c2cc1O)OCO5,H37Rv,,BACTEC,,MIC,,>12.5 µg/mL
CCSc1nc(C(N)=S)cnc1C(C)(C)C,H37Rv,,,,MIC,,>12.5 µg/mL
COc1ccc2nc3cc(Cl)ccc3c(Nc3cc(CN4CCCC4)c(O)c(CN4CCCC4)c3)c2n1,81.10,ethA D1109-37,resazurin,,MIC,,5–10 µg/mL
N#Cc1c(N)[n+]([O-])c2cc(F)c(Cl)cc2[n+]1[O-],H37Rv,,,,inhibition,6.25 µg/mL,99%
CO[C@H]1/C=C/O[C@@]2(C)Oc3c(C)c(OS(=O)(=O)c4ccc(C)cc4)c4c(c3C2=O)C(=O)C(/C=N/N2CCN(C)CC2)=C(NC(=O)/C(C)=C\C=C\[C@H](C)[C@H](O)[C@@H](C)[C@@H](O)[C@@H](C)[C@H](OC(C)=O)[C@@H]1C)C4=O,,,resazurin,,MIC90,,0.24 µM
Cc1cc2c(cc1C)[n+]([O-])c(NCCCN(C)C)c(C#N)[n+]2[O-],H37Rv,,,,inhibition,6.25 µg/mL,81%
CC(C)=CCC/C(C)=C/CC/C(C)=C/CC/C(C)=C/C=C/C=C(\C)CC/C=C(\C)CC/C=C(\C)CCC=C(C)C,H37Rv,,BACTEC,,MIC bound,,>12.5 µg/mL
CCCCCc1ccc(Oc2cccnc2C#N)c(O)c1,,,,,MIC100,,0.313 µg/mL
CCC(=O)N1C(=O)C(C)C23c4cc(OC)c(OC)cc4C(=O)N2CCCN13,H37Rv,,BACTEC,,MIC,,≥12.8 µg/mL
COc1cc2c[n+](C)c3c4cc(OC)c(OC(C)C)cc4ccc3c2cc1OC,H37Rv,,BACTEC,,inhibition,12.5 µg/mL,98%
CO[C@H]1/C=C/O[C@@]2(C)Oc3c(C)c(O)c4c(O)c(c(/C=N/N5CCN(C)CC5)c(O)c4c3C2=O)NC(=O)/C(C)=C\C=C\[C@H](C)[C@H](O)[C@@H](C)[C@@H](O)[C@@H](C)[C@H](OC(C)=O)[C@@H]1C,12761,,,,MIC,,0.06 µg/mL
NC(=O)C1C2CCC(O2)C1C(=O)O,H37Rv,,BACTEC,,MIC bound,,>12.5 µg/mL
CO[C@H]1/C=C/O[C@@]2(C)Oc3c(C)c(NCc4ccccc4)c4c(c3C2=O)C(O)C(/C=N/N2CCN(C)CC2)=C(NC(=O)/C(C)=C\C=C\[C@H](C)[C@H](O)[C@@H](C)[C@@H](O)[C@@H](C)[C@H](OC(C)=O)[C@@H]1C)C4=O,,,resazurin,,MIC90,,>4.4 µM
O=C(NN1CCCCCC1)c1ccc(C(=O)NN2CCCCCC2)cc1,H37Rv,,BACTEC,,MIC bound,,>12.5 µg/mL
CCCSc1nc(C(N)=S)cnc1C(C)(C)C,H37Rv,,,,MIC,,>12.5 µg/mL
O=C1CN(c2cccc(C(F)(F)F)c2)C(=O)CN1/N=C/c1ccco1,H37Rv,,BACTEC,,MIC bound,,>12.5 µg/mL
CCCSc1nc(C(N)=O)cnc1C(C)(C)C,H37Rv,,,,inhibition,12.5 µg/mL,<90%
O=C(NNC(=O)c1ccc(Cl)cc1)c1ccc(Cl)cc1,H37Rv,,BACTEC,,MIC,,≥12.5 µg/mL
O=C1CSC(c2ccccc2)N1C(=O)NCCCN1c2ccccc2Sc2ccccc21,H37Rv,,agar,,inhibition,25 µg/mL,20%

Repeating the final 8 entries:

SMILES	strain or isolate	changes	method	conditions	read-out	tested at	result
NC(=O)C1C2CCC(O2)C1C(=O)O	H37Rv		BACTEC		MIC bound		>12.5 µg/mL
CO[C@H]1/C=C/O[C@@]2(C)Oc3c(C)c(NCc4ccccc4)c4c(c3C2=O)C(O)C(/C=N/N2CCN(C)CC2)=C(NC(=O)/C(C)=C\C=C\[C@H](C)[C@H](O)[C@@H](C)[C@@H](O)[C@@H](C)[C@H](OC(C)=O)[C@@H]1C)C4=O			resazurin		MIC90		>4.4 µM
O=C(NN1CCCCCC1)c1ccc(C(=O)NN2CCCCCC2)cc1	H37Rv		BACTEC		MIC bound		>12.5 µg/mL
CCCSc1nc(C(N)=S)cnc1C(C)(C)C	H37Rv				MIC		>12.5 µg/mL
O=C1CN(c2cccc(C(F)(F)F)c2)C(=O)CN1/N=C/c1ccco1	H37Rv		BACTEC		MIC bound		>12.5 µg/mL
CCCSc1nc(C(N)=O)cnc1C(C)(C)C	H37Rv				inhibition	12.5 µg/mL	<90%
O=C(NNC(=O)c1ccc(Cl)cc1)c1ccc(Cl)cc1	H37Rv		BACTEC		MIC		≥12.5 µg/mL
O=C1CSC(c2ccccc2)N1C(=O)NCCCN1c2ccccc2Sc2ccccc21	H37Rv		agar		inhibition	25 µg/mL	20%

Two numbers with a dash give a range or band. Inhibition is in % at the dose shown (toxicity tests: loss of growth or viability). Rows are shuffled and stem from different studies. MIC bound: limit read from a one-dose screen. Zones are inhibition diameters on agar. A number after MIC or MFC names an inhibition level or a share of isolates.